Experimental data reported in PubChem BioAssay AID588497 (NMMLSC, 2011).
The list shows a part of the results, in another mix than the full data. Records with an inconclusive call do not appear. Active and inactive are the calls of the source. Cut-off read from the data, not from the text of the source: active = inhibition above about 35% (passing the limit was not always enough); inconclusive = no clear call, values can overlap the other calls.

test system: Botulinum neurotoxin type F light chain protease (Clostridium botulinum); assay: BoNT/F light chain protease inhibitors, primary screen, biochemical, flow cytometry, MLPCN library (AID 588497); details: Multiplex microsphere protease cleavage assay, at 10 µM, stronger effect = higher value; note: plate controls were buffer without enzyme for full effect and enzyme alone for no effect

| SMILES | inhibition |
| --- | --- |
| CCN(/C(=N/P(=O)(N1CCOCC1)N1CCOCC1)N1CCOCC1)c1ccc(OC)cc1 | inactive: -4.6% |
| Nc1ccc([As](=O)(O)c2ccc(N)cc2)cc1 | inactive: -7.3% |
| C[N+]1=C2C=CC=CC=C2SC12C([N+](=O)[O-])=CC([N+](=O)[O-])=C[C-]2[N+](=O)[O-] (stereo not drawn) | inactive: 11.3% |
| Cc1ccc(NP(=O)(Oc2ccccc2)Oc2ccccc2)nc1 | inactive: -6.4% |
| O=[N+]([O-])c1cc([N+](=O)[O-])c(CCNc2ccccc2)c([N+](=O)[O-])c1 | inactive: -21.2% |
| CCc1nc2c(n1)c1c(non1O)c1c2no[n+]1[O-] | inactive: -0.2% |
| CC(=O)N1C2C3N(C(C)=O)C1C1N(C(C)=O)C(C(N1C(C)=O)N3C(C)=O)N2C(C)=O | inactive: 5.1% |
| O=[N+]([O-])c1cccc2n[nH]nc12 | inactive: -3.2% |
| COc1ccc(C2=NCC(CBr)S2)cc1 (stereo not drawn) | inactive: -16.7% |
| c1nnnn1CCn1cnnn1 | inactive: 21.8% |
| O=P(Nc1nccs1)(c1ccccc1)c1ccccc1 | inactive: -1.2% |
| CC(C)C(=O)NC(Sc1ccccc1)C(Cl)(Cl)Cl (stereo not drawn) | inactive: -3.5% |
| O=C(OC1CN2CCC1CC2)c1cccc(Cl)c1 (stereo not drawn) | inactive: 7.3% |
| C(Cc1nn[nH]n1)Cc1nn[nH]n1 | inactive: -1.4% |
| Nc1ccc([As](=O)(O)c2ccc([N+](=O)[O-])cc2)cc1 | inactive: -1.1% |
| O=[As](O)(c1ccccc1)c1ccc(O)cc1 | inactive: -3% |
| CC(=O)NC(SC(=S)N(C)C)C(Cl)(Cl)Cl (stereo not drawn) | inactive: 3.9% |
| O=[N+]([O-])c1ncn(CCn2cnc([N+](=O)[O-])n2)n1 | inactive: 1.5% |
| O=[N+]([O-])c1ccc(O)c(/C=N/Nc2ccc([N+](=O)[O-])cc2[N+](=O)[O-])c1 | inactive: -3.6% |
| O=P(Nc1nc2ccccc2s1)(c1ccccc1)c1ccccc1 | inactive: -12.3% |
| C[C@H]1OP(=O)(Oc2ccccc2)[C@H](O)[C@H](O)[C@H]1N=[N+]=[N-] (stereo partly drawn) | inactive: 0.6% |

| SMILES | inhibition |
| --- | --- |
| CN(C)C1(CNC(=O)c2ccc(Cl)c(S(N)(=O)=O)c2)CCCCC1 | inactive: 11.1% |
| O=P(Nc1ccccn1)(c1ccc(Br)cc1)c1ccc(Br)cc1 | inactive: -11.9% |
| COc1ccc(N)c([N+](=O)[O-])c1[N+](=O)[O-] | inactive: -3% |
| Nc1ccc(CCCCOc2ccccc2)cc1 | inactive: -10.1% |
| CC(NC(=O)COC(=O)C(O)(c1ccccc1)c1ccccc1)c1ccccc1 (stereo not drawn) | inactive: 9% |
| O=c1c2cc([N+](=O)[O-])ccc2[nH]c2c([N+](=O)[O-])cc([N+](=O)[O-])cc12 | inactive: -1.5% |
| O=C(OC1CN2CCC1CC2)c1ccccc1 (stereo not drawn) | inactive: -15.6% |
| CCC(=O)N1C2C3N(C(=O)CC)C1C1N(C(=O)CC)C(C(N1C(=O)CC)N3C(=O)CC)N2C(=O)CC | inactive: 1.7% |
| COC(=O)c1cc2c(s1)N=C(c1ccccc1)N(C)P2(=O)N1CCOCC1 (stereo not drawn) | inactive: 1.2% |
| CC(=O)NC(SC(=S)N(CC(C)C)CC(C)C)C(Cl)(Cl)Cl (stereo not drawn) | inactive: -3% |
| Cc1ccc(OP(=O)(Nc2ccccn2)Oc2ccc(C)cc2)cc1 | inactive: -6% |
| O=P1(N(CCCl)CCCl)OCCC2CCCCN21 (stereo not drawn) | inactive: -13.6% |
| c1ccc(-c2nn[nH]n2)c(-c2nn[nH]n2)c1 | inactive: -6.9% |
| O=C(NC1CCS(=O)(=O)C1)NP(=S)(Oc1ccccc1)Oc1ccccc1 (stereo not drawn) | inactive: -9% |
| CCNC(=S)/N=C(\N)N[N+](=O)[O-] | inactive: -6.1% |
| CC(=O)Nc1ccc([As](=O)(O)O)c(O)c1 | inactive: -3.3% |
| CC(=O)Nc1ccc(Oc2c([N+](=O)[O-])cc([N+](=O)[O-])cc2[N+](=O)[O-])cc1 | inactive: -0.2% |
| Cc1ccccc1CN(C)C(=O)COC(=O)C(O)(c1ccccc1)c1ccccc1 | inactive: 4.5% |
| C[C@H]1OP(=O)(Oc2ccccc2)C[C@@H]2O[C@@H]21 (stereo partly drawn) | inactive: 0.1% |
| C[C@@H]1C=CCP(=O)(Oc2ccccc2)O1 (stereo partly drawn) | inactive: -1.8% |
| CC(=O)c1ccc(N2CC2c2ccncc2)cc1 (stereo not drawn) | inactive: -34.9% |

| SMILES | inhibition |
| --- | --- |
| N#C/C(=C\c1ccc(N(CCBr)CCBr)cc1)C(N)=O | inactive: -0.6% |
| COC(=O)C1(C)COP(=O)(NCc2ccccc2)OC1 (stereo not drawn) | inactive: 0.4% |
| CC(C)(C)C(=O)NC(Sc1ccccc1)C(Cl)(Cl)Cl (stereo not drawn) | inactive: -0.4% |
| CCc1cc(O)c([N+](=O)[O-])c(C)c1[N+](=O)[O-] | inactive: 3.5% |
| O=P1(Nc2nc3ccc(Cl)cc3s2)COc2ccccc2O1 (stereo not drawn) | inactive: 0.1% |
| CCOc1ccc(C2=NCC(CBr)S2)cc1 (stereo not drawn) | inactive: 1.5% |
| COc1cc(C2NCCC3(OCCO3)C2(C)C)cc(OC)c1OC (stereo not drawn) | inactive: -10% |
| CCOP(=O)(Nc1cccc2ccccc12)OCC | inactive: -4.1% |
| Cc1ccc(NCCc2c([N+](=O)[O-])cc([N+](=O)[O-])cc2[N+](=O)[O-])cc1 | inactive: -12.1% |
| Nc1cccc2c([As](=O)(O)O)cccc12 | inactive: -16.2% |
| CCCOP(=S)(Nc1nc(N)cc(=O)[nH]1)OCCC | inactive: 0.9% |
| Cc1cccc(OCC(=O)OC2CN3CCC2CC3)c1 (stereo not drawn) | inactive: -0.5% |
| O=[As](O)(c1cccc(O)c1)c1cccc(O)c1 | inactive: 1.3% |
| O=[As](O)(O)c1cccnc1 | inactive: -6% |
| COc1cc(C(=O)NCC2(N3CCOCC3)CCCCC2)cc(Cl)c1OC(C)C | inactive: -7.6% |
| CS(=O)(=O)c1ccc(Cl)c(NC(=O)COC(=O)C(O)(c2ccccc2)c2ccccc2)c1 | inactive: -0.8% |
| N#CCCN(C(=O)COC(=O)C(O)(c1ccccc1)c1ccccc1)c1ccc(F)cc1 | inactive: -447% |
| CN(C(=O)Cc1ccccc1)[C@@H]1CC[C@]2(CCCO2)C[C@H]1N1CCCC1 | inactive: -1.4% |
| CCOP1(=S)c2c(C)nn(CCC#N)c2N=C(c2ccc(F)cc2)N1C (stereo not drawn) | inactive: -3.2% |
| O=[N+]([O-])c1ccc2c(c1)nnn2O | inactive: -0.2% |
| CN(C)C(=O)c1cc([N+](=O)[O-])cc2c1-c1c(cc([N+](=O)[O-])cc1[N+](=O)[O-])C2=O | inactive: -4.4% |
